Measured values from several laboratories, pooled; numbers as filed in NIAID ChemDB.

All rows: target-level tests

Percent inhibition refers to the dose given; in toxicity tests it is the harm to the cells. a–b is a range or a potency band. Lines come from different laboratories, so protocols vary. ICn is the concentration giving n% inhibition. Blank or dashed fields: not listed here.

structure	strain or isolate	protein	method	read-out	tested at	result
C[C@H](NC(=O)[C@H](CCCNC1CCCCC1)NC(=O)c1ccc(CNCc2ncc[nH]2)cc1)c1cccc2ccccc12		CXCR4	radiometric	IC50		<0.1 µM
O=C1CC(C(=O)N(CCCN2CCC(Cc3ccccc3)CC2)c2ccccc2)CN1CC(F)(F)F		CCR5	radiometric	inhibition	1 µM	90%
COc1ccc(CCNC(=O)c2ccc(C(=O)NCCc3ccc(OC)c(OC)c3)nc2)cc1OC		Cyclophilin A	absorbance	IC50		43.75 µM
C=C1CN(S(=O)(=O)c2ccc(C)cc2)CCCN(CCC(C)C)CCCN(S(=O)(=O)c2ccc(C)cc2)C1		CD4		IC50		0.67 µM
C[C@H](NC(=O)[C@H](CCCNC1CCc2ccccc21)NC(=O)c1ccc(CNCc2ncc[nH]2)cc1)c1cccc2ccccc12		CXCR4	radiometric	IC50		<0.1 µM
Clc1cc(CN2CCCNCCNCCCNCC2)cc(Cl)n1	WT	CXCR4		IC50		0.42 µM
COCCNC(=O)[C@@H](NC(=O)[C@H](Cc1ccc(OC)c(OC)c1OC)C[C@H](O)[C@H](Cc1ccccc1)NC(=O)OC(C)(C)C)C(C)C		Cathepsin D		IC50		0.1 µM
c1ccc(CNCc2ccc(CN3CCNCCCCCCCNCC3)cc2)nc1		CXCR4	calcium flux	IC50		<1 µg/mL
Cc1ccc(C(=O)Nc2ccc(S(=O)(=O)O)c3cc(S(=O)(=O)O)cc(S(=O)(=O)O)c23)cc1NC(=O)c1cccc(NC(=O)Nc2cccc(C(=O)Nc3cc(C(=O)Nc4ccc(S(=O)(=O)O)c5cc(S(=O)(=O)O)cc(S(=O)(=O)O)c45)ccc3C)c2)c1		cAMP-dependent protein kinase		IC50		656 µM
Nc1ncnc2c1ncn2[C@H]1CN[C@@H](CO)C1		Adenosine deaminase		Ki		85 µM
C/C(=N\N=C(N)N)c1cc(NC(=O)CCCCCCCCC(=O)Nc2cc(/C(C)=N/N=C(N)N)cc(/C(C)=N/N=C(N)N)c2)cc(/C(C)=N/N=C(N)N)c1		Deoxyhypusine synthase	radiometric	IC50		1 µM
Cn1c2ccccc2c(=O)c2c(O)cccc21		Protein kinase C	nucleotide incorporation	inhibition	20 µg/mL	63.2%
c1ccc(CNCc2ccc(CN3CCNCCNCCc4cccc(c4)CC3)cc2)nc1		CXCR4	calcium flux	IC50		>1 µg/mL
COc1ccnc2[nH]cc(C(=O)C(=O)N3CCN(C(=O)c4ccccc4)C[C@H]3C)c12		gp120	radiometric	IC50		~60 µM
CC(C)CN(CCC[C@H](NC(=O)c1ccc(CNCc2ncc[nH]2)cc1)C(=O)N[C@@H](C)c1cccc2ccccc12)CC(C)C		CXCR4	radiometric	IC50		<0.1 µM
CCCCCCCC1C[C@@H]2CCc3c(C(=O)OCCCCCCC[C@@H]4C[C@@H]5CC[C@H]6C[C@@H](C)N(O)C(=N4)N56)c(C)nc([n+]32)N1		CD4		IC50		7.1 µM
C=CCN(C(=O)OCc1ccccc1)C1CCN(CCC(C)(c2ccccc2)C2Nc3ccccc3S(=O)(=O)N2)CC1		CXCR4		IC50		>1 µM
C=C1CN(S(=O)(=O)c2ccc(C)cc2)CCCN(C(C)C)CCCN(S(=O)(=O)c2ccc(C)cc2)C1		CD4		IC50		11 µM
CO[C@H]1[C@H](O)[C@@H](O)C(n2c3ccccc3c3c4c(c5c6ccccc6[nH]c5c32)C(=O)N(CCCCOC(=O)CBr)C4=O)O[C@@H]1CO		Topoisomerase I		IC50		1.14 µM
Cn1cc(C(=O)O)c(=O)c2cc(N)c(N3CCN(c4ccccn4)CC3)cc21		Tat:TAR/LTR	fluorescence	IC50		710 µM
NC(N)=NCCC[C@@H]1NC(=O)[C@@H](NC(=O)CCN=C(N)N)CSSC[C@H](C(=O)NCCc2ccc(O)cc2)NC(=O)[C@H](Cc2ccc3ccccc3c2)NC1=O		CXCR4	radiometric	IC50		~1 µM
C=C1CN(S(=O)(=O)c2ccc(C)cc2)CCCN(Cc2cccnc2)CCCN(S(=O)(=O)c2ccc(C)cc2)C1		CD4		IC50		4.83 µM
O=S(=O)(c1cccc2cnccc12)N1CCNCC1		Protein kinase C	nucleotide incorporation	inhibition	0.8 µg/mL	13.8%
CN(C)CCCNC(=O)CCNC(=O)c1cc(NC(=O)c2nc(NC(=O)CCNC(=O)c3cc(NC(=O)c4nc(NC(=O)CCCNC(=O)c5cc(NC(=O)c6nc(NC(=O)CCNC(=O)c7cc(NC(=O)c8nccn8C)cn7C)cn6C)cn5C)cn4C)cn3C)cn2C)cn1C		RNA polymerase II		IC50		0.06 µM
C=C1CN(S(=O)(=O)c2ccc(C)cc2)CCCN(Cc2ccncc2)CCCN(S(=O)(=O)c2ccc(C)cc2)C1		CD4		IC50		4.7 µM
O=C(O)c1cc(O)c(O)c(O)c1		CD4	flow cytometry	IC50		>20 µM
CCCN(CCC)CCC[C@H](NC(=O)c1ccc(CNCc2ncc[nH]2)cc1)C(=O)N[C@@H](C)c1cccc2ccccc12		CXCR4	radiometric	IC50		<0.1 µM
COc1ccccc1/C(=N\O)C(=O)C(Br)(Br)Br		Cathepsin D		IC50		>1000 µM
O=C(O)/C=C/c1ccc(O)c(O)c1		CD4	flow cytometry	inhibition	20 µg/mL	58%
CN1CC(C(=O)N(CCCCN2CCC(C(=O)c3ccc(F)cc3)CC2)c2ccccc2)CC1=O		CCR5	radiometric	inhibition	1 µM	22%
c1ccc(CNCc2ccc(CN3CCNCCc4cccc(n4)CCNCC3)cc2)nc1		CXCR4	calcium flux	IC50		<1 µg/mL
CC(=O)CC1(O)c2c3[nH]c4ccccc4c3cc[n+]2C2C=CC=CC21		p56lck tyrosine kinase	ELISA	inhibition	300 µM	56%
O=c1cc(-c2ccccc2)c2ccccc2[nH]1		Tat:TAR/LTR		IC50		20 µM
O=[N+]([O-])c1ccc(-c2cnn(-c3nccc(C(F)(F)F)n3)c2)c([N+](=O)[O-])c1		InhA		IC50		2.4 µg/mL
O=S(=O)(c1cccc2cnccc12)N1CCNCC1		Protein kinase C	nucleotide incorporation	inhibition	0.16 µg/mL	23.8%
CN1CC(C(=O)N(CCCN2CCC(Cc3ccccc3)CC2)Cc2ccccc2)CC1=O		CCR5	radiometric	inhibition	1 µM	67%
CC(C)[C@H](NC(=O)[C@H](Cc1ccccc1)C[C@H](O)[C@H](Cc1ccccc1)NC(=O)OC(C)(C)C)C(=O)N[C@@H](Cc1ccccc1)C(=O)N1CCOCC1		Cathepsin D		Ki		0.004 µM
Nc1nccc2c1ncn2[C@H]1CC[C@@H](CO)O1		S-adenosylhomocysteine hydrolase	radiometric	Ki		30.1 µM
O=C(O)Cc1ccc(O)c(O)c1		CD4	flow cytometry	inhibition	20 µg/mL	89%
C/C(CC(=O)Nc1ccc(C(N)=O)cc1)=N\NC(=O)COc1ccc2ccccc2c1		Cyclophilin A	absorbance	IC50		72.8 µM
C=C1CN(S(=O)(=O)c2ccc(CBr)cc2)CCCN(Cc2ccccc2)CCCN(S(=O)(=O)c2ccc(CBr)cc2)C1		CD4		IC50		12.9 µM
Cc1ccccc1CNCCC[C@H](NC(=O)c1ccc(CNCc2ncc[nH]2)cc1)C(=O)N[C@@H](C)c1cccc2ccccc12		CXCR4	radiometric	IC50		<0.1 µM
O=C(O)CCc1ccc(O)c(O)c1		CD4	flow cytometry	IC50		>20 µM
CCCCCCCCCC1C[C@@H]2CC[C@H]3[C@@H](C(=O)OC(C)CCCCCCC[C@@H]4C[C@@H]5CC[C@H]6C[C@@H](C)N(O)C(=N4)N56)[C@@H](C)N=C(N1)N23		CD4		IC50		24 µM
Cn1c2ccccc2c(=O)c2c(O)cccc21		Protein kinase C	nucleotide incorporation	inhibition	4 µg/mL	51.7%
Nc1ncnc2c1ncn2[C@H]1CC[C@@H](CO)O1		S-adenosylhomocysteine hydrolase	radiometric	Ki		28 µM
Cc1cc(NC(=O)C(=O)NCCN2CCN(C(=O)c3ccccc3F)CC2)ccc1Br		Cyclophilin A	absorbance	IC50		53.4 µM
COc1c(-c2ccccc2)c2ccccc2[nH]c1=O		Tat:TAR/LTR		IC50		5 µM
Oc1cccc(O)c1O		CD4	flow cytometry	IC50		4–20 µM

A second listing of 7 rows from above:

structure | strain or isolate | protein | method | read-out | tested at | result
O=S(=O)(c1cccc2cnccc12)N1CCNCC1 |  | Protein kinase C | nucleotide incorporation | inhibition | 0.16 µg/mL | 23.8%
Cc1ccc(C(=O)Nc2ccc(S(=O)(=O)O)c3cc(S(=O)(=O)O)cc(S(=O)(=O)O)c23)cc1NC(=O)c1cccc(NC(=O)Nc2cccc(C(=O)Nc3cc(C(=O)Nc4ccc(S(=O)(=O)O)c5cc(S(=O)(=O)O)cc(S(=O)(=O)O)c45)ccc3C)c2)c1 |  | cAMP-dependent protein kinase |  | IC50 |  | 656 µM
c1ccc(CNCc2ccc(CN3CCNCCc4cccc(n4)CCNCC3)cc2)nc1 |  | CXCR4 | calcium flux | IC50 |  | <1 µg/mL
C=C1CN(S(=O)(=O)c2ccc(C)cc2)CCCN(C(C)C)CCCN(S(=O)(=O)c2ccc(C)cc2)C1 |  | CD4 |  | IC50 |  | 11 µM
Oc1cccc(O)c1O |  | CD4 | flow cytometry | IC50 |  | 4–20 µM
O=S(=O)(c1cccc2cnccc12)N1CCNCC1 |  | Protein kinase C | nucleotide incorporation | inhibition | 0.8 µg/mL | 13.8%
Clc1cc(CN2CCCNCCNCCCNCC2)cc(Cl)n1 | WT | CXCR4 |  | IC50 |  | 0.42 µM